Experimental findings from the supplement of paper PMC3578754 are described below.

Holding throughout (test): fold change of IC50 against reference virus; higher = more resistant; Cell-culture drug susceptibility tests of virus bearing the protease of each isolate, gathered from many studies.
Compound in one assay: CC(C)(C)NC(=O)[C@@H]1CN(Cc2cccnc2)CCN1C[C@@H](O)C[C@@H](Cc1ccccc1)C(=O)N[C@H]1c2ccccc2C[C@H]1O [indinavir]
Compound in another assay: CC(C)(C)NC(=O)[C@@H]1C[C@@H]2CCCC[C@@H]2CN1C[C@@H](O)[C@H](Cc1ccccc1)NC(=O)[C@H](CC(N)=O)NC(=O)c1ccc2ccccc2n1 [saquinavir]
Compound in a further assay: CCC[C@@]1(CCc2ccccc2)CC(O)=C([C@H](CC)c2cccc(NS(=O)(=O)c3ccc(C(F)(F)F)cn3)c2)C(=O)O1 [tipranavir]
Compound in another assay: COC(=O)N[C@H](C(=O)N[C@@H](Cc1ccccc1)[C@@H](O)CN(Cc1ccc(-c2ccccn2)cc1)NC(=O)[C@@H](NC(=O)OC)C(C)(C)C)C(C)(C)C [atazanavir]
Compound in another assay: Cc1c(O)cccc1C(=O)N[C@@H](CSc1ccccc1)[C@H](O)CN1C[C@H]2CCCC[C@H]2C[C@H]1C(=O)NC(C)(C)C [nelfinavir]
Compound in a further assay: Cc1cccc(C)c1OCC(=O)N[C@@H](Cc1ccccc1)[C@@H](O)C[C@H](Cc1ccccc1)NC(=O)[C@H](C(C)C)N1CCCNC1=O [lopinavir]
Compound in the next assay: CC(C)c1nc(CN(C)C(=O)N[C@H](C(=O)N[C@@H](Cc2ccccc2)C[C@H](O)[C@H](Cc2ccccc2)NC(=O)OCc2cncs2)C(C)C)cs1 [ritonavir]

Fold change is the IC50 on the isolate divided by the IC50 on a reference virus; 1 = unchanged, higher = more resistant. Changes are given against the subtype B consensus. No active / inactive call. The values were gathered from many studies (numbered anew) with different assays, which the source does not name. Most viruses are clinical isolates; some are laboratory strains or clones with known resistance changes. Isolates with mixed residues are left out; stretches that were not sequenced show no change. Round top values that many isolates share are read here as limits; other very high values and 0.1 may be limits too. The protease changes I3V and N37S, insertions and deletions cannot be read from the source.

As for “HIV-1 isolate 1060 (protease changes: L10I G16A L33F R41K K43T M46L F53L Q61E I62V L63P A71V T74P V77I V82A L90M I93L, study 15)”, the “fold change of IC50 against reference virus” value (shortened to “fold change of IC50”) with indinavir worked out at 24; with saquinavir, 200; with tipranavir, 35; with atazanavir, 32; with nelfinavir it was 41; with lopinavir it was 47.
Turning to “HIV-1 isolate 1095 (protease changes: T12V I13V I15V K20M V32I L33F K43T I54L K55N I62V L63P A71V I72V G73S V77I V82L I84V L89V L90M, study 46)”, the “fold change of IC50” value with indinavir worked out at 48; with saquinavir, 30; in the assay with tipranavir, 13; with atazanavir it was 121; with nelfinavir, 62; in the assay with lopinavir, 46.
Regarding “HIV-1 isolate 548 (protease changes: I15V M36I R41K, study 64)”, the “fold change of IC50” value with indinavir came out at 0.4; with saquinavir it was 0.6; with ritonavir, 0.4; with tipranavir it was 0.6; in the assay with atazanavir it was 0.6; in the assay with nelfinavir it was 0.4.
“HIV-1 isolate 577 (protease changes: V32I I47V Q61E L63P V82A I93L, study 124)”: the “fold change of IC50” value with indinavir was 3.3; with saquinavir, 0.2; with ritonavir, 4.8; in the assay with tipranavir, 0.4; in the assay with nelfinavir, 2.1; with lopinavir, 2.7.
As for “HIV-1 isolate 866 (protease changes: L10I I13V I15V K20R L33F E34N E35D M36I K43T I47V I50L F53L Q58E I62V L63P I66F A71V V77I V82A I84V L89V, study 46)”, the “fold change of IC50” value with indinavir worked out at 18; with saquinavir, 100; with tipranavir, 45; with atazanavir, 40; with nelfinavir it was 4.4; with lopinavir it was 81.
As for “HIV-1 isolate 1495 (protease changes: L10I I13V G16A Q18H L33F N37D M46I I54V Q61H L63P A71L I72T L76V V77I N88G L90M I93L, study 8)”, the “fold change of IC50” value is 8.7 with indinavir; 0.6 with saquinavir; 16.2 in the assay with ritonavir; 0.8 in the assay with tipranavir; 1.6 with nelfinavir; 46.3 in the assay with lopinavir.
With “HIV-1 isolate 479 (protease changes: N37Y R41K R57K V77I I93L, study 64)”, the “fold change of IC50” value with indinavir worked out at 1.2; with saquinavir, 0.7; with ritonavir, 0.9; with tipranavir it was 0.6; with atazanavir, 0.8; with nelfinavir, 1.5.
Consider “HIV-1 isolate 692 (protease changes: L10F I13V D30N K45I I50L L63P A71I V77I N88D, study 46)”, for which the “fold change of IC50” value in the assay with indinavir worked out at 1.1; with saquinavir, 6.6; in the assay with tipranavir, 0.4; in the assay with atazanavir, 35; with nelfinavir, 196; with lopinavir, 0.9.
Regarding “HIV-1 isolate 1561 (protease changes: L10I I15V L24F L33F E35D R41K M46I I54V I62V L63P A71V G73S V82A L90M I93L, study 64)”, the “fold change of IC50” value in the assay with indinavir worked out at 40; in the assay with saquinavir, 44; with tipranavir, 2.1; with atazanavir, 139; in the assay with nelfinavir, 91; with lopinavir, 103.
“HIV-1 isolate 1249 (protease changes: L10F V32I L33F M46I I47V Q61E L63P V82A I93L, study 124)”: the “fold change of IC50” value turned out to be 7 with indinavir; 0.3 with saquinavir; 18 with ritonavir; 1 in the assay with tipranavir; 5.8 with nelfinavir; 37 with lopinavir.
In the case of “HIV-1 isolate 885 (protease changes: L10I V32I M46I I47A I62V L63P V77I V82I Q92K I93L C95F, study 124)”, the “fold change of IC50” value with saquinavir is 0.7; with ritonavir, 11; in the assay with tipranavir, 1.7; with nelfinavir, 54; in the assay with lopinavir it was 209.
On to “HIV-1 isolate 531 (protease changes: T4A L10F E35D N37E M46I L63P K70R A71V T74P I84V L90M I93L, study 8)”, for which the “fold change of IC50” value turned out to be 10.6 with indinavir; 29.8 with saquinavir; 19.5 with ritonavir; 1.1 with tipranavir; 30.1 with nelfinavir; 9.4 with lopinavir.
“HIV-1 isolate 1358 (protease changes: R57G, study 132)”: the “fold change of IC50” value with indinavir, with saquinavir, with ritonavir, with tipranavir and with nelfinavir was 1 throughout.
For the test system “HIV-1 isolate 1234 (protease changes: L10I L33F M46I I54V L63P A71V T74P I84V L90M I93L, study 124)”, the “fold change of IC50” value in the assay with indinavir turned out to be 18; in the assay with saquinavir it was 36; with ritonavir it was 72; in the assay with tipranavir, 6.2; in the assay with nelfinavir it was 40; with lopinavir it was 46.
“HIV-1 isolate 1321 (protease changes: N37D D60E I62V L63P G68E V77I I93L, study 64)”: the “fold change of IC50” value is 0.7 with indinavir; 0.6 with saquinavir; 0.5 in the assay with ritonavir; 0.5 with tipranavir; 0.8 with atazanavir; 1.2 in the assay with nelfinavir.
With “HIV-1 isolate 254 (protease changes: L63P I72T V77I I93L, study 64)”, the “fold change of IC50” value with indinavir is 0.7; with saquinavir, 0.5; with ritonavir, 0.5; with tipranavir, 0.4; in the assay with atazanavir it was 0.6; with nelfinavir, 1.
For the test system “HIV-1 isolate 1446 (protease changes: L10F E35D N37D L63P A71V T74P I84V L90M I93L, study 8)”, the “fold change of IC50” value was 8.2 in the assay with indinavir; 16.3 with saquinavir; 15.4 in the assay with ritonavir; 1.2 with tipranavir; 20.5 in the assay with nelfinavir; 3.7 with lopinavir.
